Anti-infective test results gathered from many reports (values: NIAID ChemDB through PubChem).

All rows: tests in culture; species: Hepatitis B virus

Conditions beyond the fields shown may differ between rows. Blank or dashed fields: not listed here. Two numbers with a dash give a range or band. ECn is the concentration giving n% inhibition of infection, replication or growth.

compound,read by,cell line,strain,mutations,measure,result
CC(C)Oc1ccc(-n2c(C(=O)NCc3ccc(C(C)(C)O)cc3)c3n(c2=O)CCN(C(=O)c2ccc(Br)c(Cl)c2)C3)cc1,PCR,HepG2.117,-,-,EC50,<0.1 µM
C[C@]1(CO)CO[C@@H](n2cnc3c(N)ncnc32)C1,-,-,-,-,EC50,>100 µM
O=C(NCc1ccccc1-c1ncccc1F)c1c2n(c(=O)n1-c1ccc(OC3CC3)cc1)CCN(C(=O)c1ccc(Br)c(Cl)c1)C2,PCR,HepG2.2.15,-,-,EC50,0.1–0.5 µM
CSc1ncc(C(=O)NCc2cccnc2)c(Nc2ccc3cn[nH]c3c2)n1,-,HepG2.2.15,-,-,EC50,<0.1 µg/mL
C[C@H](NC(=O)c1c2n(c(=O)n1-c1ccc(OCC(F)(F)F)cc1)CCN(C(=O)c1ccc(Br)c(Cl)c1)C2)c1ccc(OC(F)F)cc1F,PCR,HepG2.117,-,-,EC50,0.1–0.5 µM
CC(=O)Nc1ccc([C@@H](C)N2CCn3nc4c(c3C2=O)CN(C(=O)c2ccc(Cl)c(Cl)c2)[C@H](C)C4)cc1,PCR,HepG2.117,-,-,EC50,0.014 µM
CNC(=O)c1cnc(SC)nc1Nc1ccc2cn[nH]c2c1,-,HepG2.2.15,-,-,EC50,<0.1 µg/mL
Cc1ccc([C@@H](C)CCCC(C)(C)O)c(OC(=O)c2ccncc2)c1,-,2.2.15,-,-,EC50,>61 µg/mL
Nc1nc2c(ncn2[C@@H]2O[C@H](COP(=O)(O)OP(=O)(O)OP(=O)(O)O)[C@H]2CO)c(=O)[nH]1,-,HB611,-,-,EC50,1.5 µM
COc1ccc(-n2c(C(=O)NCc3ccc4occc4c3)c3n(c2=O)CCN(C(=O)c2ccc(Cl)c(Cl)c2)C3)cc1,PCR,HepG2.117,-,-,EC50,0.5–5 µM
COc1ccc(Sc2nc(N)nc3c2ncn3CCOCP(=O)(OCC(F)(F)F)OCC(F)(F)F)cc1,-,HB611,-,-,EC50,0.03 µM
C[C@@H]1Cc2nn3c(c2CN1C(=O)c1ccc(Cl)c(Cl)c1)C(=O)N([C@H](C)c1ccc(NS(C)(=O)=O)cc1)CC3,PCR,HepG2.117,-,-,EC50,0.061 µM
COc1ccc(-n2c(C(=O)NCc3ccc(OC(F)F)cc3)c3n(c2=O)CCN(C(=O)c2ccc(Br)c(Cl)c2)C3)cc1,PCR,HepG2.117,-,-,EC50,0.1–0.5 µM
C[C@@H]1Cc2nn3c(c2CN1C(=O)c1ccc(Cl)c(C#N)c1)C(=O)N(Cc1ccc2nccn2c1)CC3,PCR,HepG2.117,-,-,EC50,0.35 µM
C[C@]1(CO)CO[C@H](n2ccc(=O)[nH]c2=O)C1,-,-,-,-,EC50,>100 µM
Cc1cccc(NC(=O)c2c(C)noc2C)c1,-,HepG2.2.15,-,-,EC50,2 µM
Nc1nc2c(ncn2COC(CO)CO)c(=O)[nH]1,-,HepAD38,-,-,EC50,>50 µg/mL
N#CC[C@@]1(O)CCC(F)(F)c2c3c(nn2C1)CCN(C(=O)Nc1ccc(F)c(C#N)c1)C3,fluorescence,HepG2.2.15,-,-,EC50,0.009 µM
Nc1ccn([C@@H]2CS[C@H](CO)O2)c(=O)n1,-,HepG2.2.15,-,-,EC50,50 µM
CSc1ncc(C(=O)NCCO)c(Nc2ccc3cn[nH]c3c2)n1,-,HepG2.2.15,-,-,EC50,<0.1 µg/mL
Nc1ccn(C[C@@H](CO)OCP(=O)(O)O)c(=O)n1,-,-,-,-,MIC,10 µg/mL
Cc1ccc([C@@H](C)CC[C@H](O)C(C)(C)O)c(O)c1,-,2.2.15,-,-,EC50,>61 µg/mL
C[C@H](NC(=O)c1c2n(c(=O)n1-c1ccc(OC3CCC3)cc1)CCN(C(=O)c1ccc(Br)c(Cl)c1)C2)c1ccccc1,PCR,HepG2.117,-,-,EC50,0.1–0.5 µM
C=C[C@H](C)Nc1nc2c(c(=O)n1-c1ccc(C(=O)N(C)C(=O)O[C@H](C)OC(=O)[C@@H](N)C(C)C)cc1)C[C@@H](C)N(C(=O)c1ccc(Br)c(C(F)(F)F)c1)C2,PCR,HepG2.117,Genotype D,-,EC50,<0.05 µM
C[C@]1(CO)CO[C@@H](n2ccc(N)nc2=O)C1,-,-,-,-,EC50,>100 µM
O=C1NC(=O)/C(=C/N2CCN(C(c3ccccc3)c3ccc(Cl)cc3)CC2)S1,ELISA,HepG2 2.2.15,-,-,EC50,6.66 µM
C[C@]1(CO)CO[C@H](n2cnc3c(=O)[nH]c(N)nc32)C1,-,-,-,-,EC50,>100 µM
Nc1ncnc2c1ncn2C[C@@H](CO)OCP(=O)(O)O,-,-,-,-,MIC,0.1 µg/mL
C[C@@H]1Cc2nn3c(c2CN1C(=O)c1ccc(Br)c(C#N)c1)C(=O)N([C@@H](C)c1ccc(OC(F)(F)F)cc1)CC3,PCR,HepG2.117,-,-,EC50,0.017 µM
CS(=O)(=O)c1cc(C(=O)NCC2CCN(c3nc4cc(Cl)ccc4o3)CC2)ccn1,antigen / luminescence,Primary human hepatocytes (PHH),-,-,EC50,5.741 µM
Cc1ccc([C@@H](C)CCCC(C)(C)O)c(O)c1,-,2.2.15,-,-,EC50,>61 µg/mL
Nc1nc2c(ncn2[C@@H]2C[C@H](CO)[C@H]2CO)c(=O)[nH]1,-,HepAD38,-,-,EC50,0.5 µg/mL
Cc1cc(NC(=O)c2c3c(cn2C)S(=O)(=O)N[C@H]2CN(C(=O)C(=O)N[C@H](C)C(F)(F)F)C[C@H]2CO3)ccc1F,PCR,HepG2,-,T33P,EC50,0.00168 µM
Cc1ccc([C@@H](C)CCC(=O)C(C)(C)O)c(O)c1,-,2.2.15,-,-,EC50,>61 µg/mL
CSc1ncc(C(=O)N(C)CCO)c(Nc2ccc3[nH]ncc3c2)n1,-,HepG2.2.15,-,-,EC50,~0.1 µg/mL
Nc1ccn([C@@H]2CS[C@H](CO)O2)c(=O)n1,PCR,HepG2 2.2.15,Genotype D,-,EC50,0.02 µg/mL
CC(C)=CCC[C@H](C)c1ccc(C)cc1OC(=O)c1ccncc1,-,2.2.15,-,-,EC50,>61 µg/mL
Nc1nc2c(ncn2COCCOP(=O)(O)OP(=O)(O)OP(=O)(O)O)c(=O)[nH]1,-,2.2.15,-,-,EC50,>100 µM
C[C@]1(CO)CO[C@H](n2ccc(N)nc2=O)C1,-,-,-,-,EC50,>100 µM
Nc1nc2c(ncn2C[C@]2(CO)C[C@H]2CO)c(=O)[nH]1,-,HepAD38,-,-,EC50,>20 µg/mL
C=C(C)[C@@H]1CC[C@]2(C(=O)OC)CC[C@]3(COC(=O)c4ccccc4)C(CCC4[C@@]5(C)CC[C@H](OC(C)=O)CC5C(C)(C)C[C@]43C)C12,ELISA,HepG2.2.15,-,-,EC50,10.4 µM
Cc1cn([C@H]2O[C@@H](CO)[C@H](O)[C@H]2F)c(=O)[nH]c1=O,-,HepG2.2.15,-,-,EC50,0.1 µM
C[C@@H]1Cc2nn3c(c2CN1C(=O)c1ccc(Cl)c(C#N)c1)C(=O)N([C@H](C)c1cccc(C(F)(F)F)c1)CC3,PCR,HepG2.117,-,-,EC50,0.143 µM
Cc1ccc([C@@H](C)CCCC(C)C(=O)O)c(O)c1,-,2.2.15,-,-,EC50,>61 µg/mL
CC(=O)Nc1cccc([C@@H](C)N2CCn3cc4c(c3C2=O)CN(C(=O)c2ccc(Cl)c(C#N)c2)[C@H](C)C4)c1,PCR,HepG2.117,-,-,EC50,0.047 µM
C=C[C@H](C)Nc1nc2c(c(=O)n1-c1ccc(C(=O)NC)cc1)C[C@@H](C)N(C(=O)c1ccc(Br)c(C(F)(F)F)c1)C2,PCR,HepG2.117,Genotype D,-,EC50,<0.05 µM
Cn1cc2c(c1C(=O)Nc1ccc(F)c(Cl)c1)OC[C@@H]1CN(C(=O)C(=O)NC3(C)COC3)C[C@@H]1NS2(=O)=O,PCR,HepAD38,-,-,EC50,<0.5 µM
C[C@H](NC(=O)c1c2n(c(=O)n1-c1ccc(OCC(F)(F)F)cc1)CCN(C(=O)c1ccc(Br)c(Cl)c1)C2)c1ccc(OC2COC2)cc1F,-,HepG2.117,-,-,EC50,0.1–0.5 µM
C[C@@H]1Cc2nn3c(c2CN1C(=O)c1ccc(Cl)c(C#N)c1)C(=O)N([C@@H](C)c1cccc(OC(F)F)c1)CC3,PCR,HepG2.117,-,-,EC50,0.04 µM
N#CC[C@@]1(O)CCC(F)(F)c2c3c(nn2C1)CCN(C(=O)NC1=CC=NC(C(F)F)C1F)C3,fluorescence,HepG2.2.15,-,-,EC50,0.333 µM
Cc1c(C(=O)N2Cc3c(nn4c3C(=O)N([C@@H](C)c3ccc(OC(F)F)cc3)CC4)C[C@H]2C)ccc(Cl)c1C#N,PCR,HepG2.117,-,-,EC50,0.083 µM
CCOC(=O)c1c(CS(=O)c2ccccc2)n(C)c2cc(Br)c(O)c(Cn3ccnc3C)c12,antigen,2.2.15,-,-,EC50,49.06 µg/mL
O=C(NC1CCC2(CC1)CCN(c1nc3cc(Cl)ccc3o1)CC2)c1ccnc(S(=O)(=O)C2CC2)c1,antigen / luminescence,Primary human hepatocytes (PHH),-,-,EC50,5.839 µM
Cc1ccc([C@@H](C)CCCC(C)(C)O)c(O[C@@H]2OC(CO)[C@@H](O)C(O)[C@@H]2O)c1,-,2.2.15,-,-,EC50,>61 µg/mL
C=C[C@H](C)Nc1nc2c(c(=O)n1-c1ccc(C(=O)N(C)C(=O)OCOC(=O)/C=C/C(=O)O)cc1)C[C@@H](C)N(C(=O)c1ccc(Br)c(C(F)(F)F)c1)C2,PCR,HepG2.117,Genotype D,-,EC50,<0.05 µM
C[C@H](NC(=O)c1c2n(c(=O)n1-c1ccc(OCC(F)(F)F)cc1)CCN(C(=O)c1ccc(Br)c(Cl)c1)C2)c1ccccc1F,PCR,HepG2.117,-,-,EC50,0.5–5 µM
CCCCCCCCCCCC(=O)Nc1nc(N)nc2c1ncn2[C@H]1CO[C@@H](COP(=O)(N[C@@H](C)C(=O)OCC)Oc2ccccc2)O1,PCR,HepAD38,-,-,EC50,0.34 µM
CC(=O)Nc1ccc([C@H](C)N2CCn3nc4c(c3C2=O)CN(C(=O)c2ccc(Cl)c(Cl)c2)[C@H](C)C4)cc1,PCR,HepG2.117,-,-,EC50,0.044 µM
C[C@H](Cn1cnc2c(N)ncnc21)OCP(=O)(O)O,PCR,HepG2.2.15,-,-,EC50,0.9 µg/mL
C[C@@H]1Cc2nn3c(c2CN1C(=O)c1ccc(Cl)c(C#N)c1Cl)C(=O)N([C@@H](C)c1ccc(OC(F)F)cc1)CC3,PCR,HepG2.117,-,-,EC50,0.2 µM
O=C1NNC(=O)c2c(ncn2[C@@H]2O[C@H](CO)[C@@H](O)[C@H]2O)N1,antigen,2.2.15,-,-,EC50,>30 µM
C/C(C=O)=C\CC[C@H](C)c1ccc(CO)cc1O,-,2.2.15,-,-,EC50,>61 µg/mL
C[C@@H]1Cc2nn3c(c2CN1C(=O)c1ccc(Cl)c(C#N)c1)C(=O)N([C@@H](C)c1ccc2c(c1)OC(F)(F)O2)CC3,PCR,HepG2.117,-,-,EC50,0.41 µM
Nc1nc2c(ncn2CCC(CO)CO)c(=O)[nH]1,-,HepAD38,-,-,EC50,46 µg/mL

For reference, 5 entries again:

N#CC[C@@]1(O)CCC(F)(F)c2c3c(nn2C1)CCN(C(=O)NC1=CC=NC(C(F)F)C1F)C3 ; read by: fluorescence ; cell line: HepG2.2.15 ; measure: EC50 ; result: 0.333 µM
CC(C)=CCC[C@H](C)c1ccc(C)cc1OC(=O)c1ccncc1 ; cell line: 2.2.15 ; measure: EC50 ; result: >61 µg/mL
COc1ccc(Sc2nc(N)nc3c2ncn3CCOCP(=O)(OCC(F)(F)F)OCC(F)(F)F)cc1 ; cell line: HB611 ; measure: EC50 ; result: 0.03 µM
Nc1nc2c(ncn2CCC(CO)CO)c(=O)[nH]1 ; cell line: HepAD38 ; measure: EC50 ; result: 46 µg/mL
C[C@@H]1Cc2nn3c(c2CN1C(=O)c1ccc(Cl)c(C#N)c1)C(=O)N([C@H](C)c1cccc(C(F)(F)F)c1)CC3 ; read by: PCR ; cell line: HepG2.117 ; measure: EC50 ; result: 0.143 µM